Data as given in PubChem BioAssay AID504761 (Drosophila RNAi Screening Center, 2011).
In all, the deposit lists about 22,000 reagents; shown is an unselected part of those with a known target gene and a result. Over the whole deposit, 116 (0.52%) are marked active. 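Calls depend on retest data that are not deposited; infection was ranked per plate without normalising between plates; the unit of the infection score is not given.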 Raw values are not corrected between plates. Names joined by + are all predicted targets of the reagent. Not all columns of the deposit are shown. Not given: the amount of reagent, the time to read-out.

- Assay: 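Fly genes whose silencing reduces dengue virus type 2 infection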 (primary screen)
- System: D.Mel-2 cells from Drosophila
- Knock-down reagent: long dsRNA against Drosophila genes
- Treatment: infection with dengue virus type 2; dose and infection time not stated
- Read-out: 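Cells stained for dengue envelope protein and imaged; percent of infected cells per well on duplicate plates, ranked by infection, with stained nuclei counted for cell number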
- Scale: infection score: higher = more virus-infected cells; cell count: higher = more cells in the well
- Call rule: 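Very low infection ranking in both replicate wells (chance probability at most 0.065), then a retest showing infection dropped 1.5-fold or more at p below 0.05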
- Meaning of the calls: active = confirmed: knock-down lowers infection; inactive = not picked or not confirmed

gene,amplicon,"infection score, replicate 1","infection score, replicate 2","cell count, replicate 1",Call
CG5800,DRSC19962,6.66,18.9,6094,inactive
CG5800,DRSC28009,31.9,5.27,4954,inactive
CG42561,DRSC05676,1.39,1.9,6260,inactive
CG18538,DRSC06765,7.51,5.05,5794,inactive
Rbf2,DRSC16816,19.4,16.2,6018,inactive
CG17030,DRSC08503,1.47,5.2,6105,inactive
Tsp42Ee,DRSC05947,20.9,13.1,5759,inactive
Tsp42Ee,DRSC29024,,25.6,338,inactive
Nf-YB,DRSC02057,,9.64,501,inactive
CG13814 (retired record),DRSC10069,4.83,5.86,6748,inactive
r,DRSC19813,26.8,1.42,5157,inactive
r,DRSC19814,5.99,14,6946,inactive
CG8915,DRSC20119,3.73,45.7,6994,inactive
Cyp6g2,DRSC07387,9.18,4.67,6087,inactive
Cyp6g2,DRSC29325,9.71,2.69,3614,inactive
CG17010,DRSC02559,25.9,15.4,6901,inactive
CG17010,DRSC29558,,29.3,340,inactive
Gr5a,DRSC18085,4.25,4.39,6464,inactive
NimC1,DRSC01879,3.4,5.85,6207,inactive
mRpS7,DRSC02814,14.5,12,5504,inactive
CG6937 + btn,DRSC16917,,,296,inactive
mbm + CG11555,DRSC00315,7.4,5.81,6730,inactive
fj,DRSC07619,8.35,25.7,6045,inactive
fj,DRSC27535,10.8,19.5,6507,inactive
scra,DRSC07679,17.7,20.1,2975,inactive
Cp16,DRSC11119,2.9,1.37,5898,inactive
Cp16,DRSC25549,5.75,1.94,6195,inactive
CG10749,DRSC09798,0.48,0.52,6254,inactive
CG10749,DRSC27656,13.5,12.3,6249,inactive
Alp10,DRSC09749,0.37,1.78,5992,inactive
Alp10,DRSC29230,1.1,,364,inactive
Sox21a,DRSC10819,1.25,2.78,5981,inactive
Sox21a,DRSC25435,4.68,4.96,6558,inactive
Rpn12R,DRSC09842,1.73,1.86,6232,inactive
Clk,DRSC11117,3.79,10.7,6383,inactive
CLIP-190,DRSC03283,3.89,5.29,6201,inactive
CLIP-190,DRSC30075,2.38,10.4,6179,inactive
CG5274,DRSC11774,11.5,30.3,6167,inactive
VAChT + ChAT,DRSC13312,5.88,3.47,5681,inactive
sNPF-R,DRSC10836,4.57,5.91,6214,inactive
Rab10,DRSC20572,3.21,2.61,4981,inactive
Rab10,DRSC25270,5.46,4.65,6048,inactive
Duba,DRSC10582,3.86,15.4,5177,inactive
CG17237,DRSC00491,1.16,1.61,6390,inactive
Hip1,DRSC09812,9.28,1.48,6551,inactive
Ccs,DRSC06692,11,16.4,6004,inactive
Exn,DRSC09673,5.32,8.82,5584,inactive
Exn,DRSC10077,4.76,2.96,6359,inactive
Exn,DRSC23685,8.48,11.4,6194,inactive
Exn,DRSC24537,2.01,3.68,6672,inactive
CG8834,DRSC07283,9.76,12.3,6785,inactive
MESR6,DRSC10720,17.8,6.96,2697,inactive
MESR6,DRSC28344,19.5,15,6174,inactive
Alr,DRSC19469,5.13,3.6,4989,inactive
CG16995,DRSC00480,3.81,3.45,6324,inactive
CG17637,DRSC11740,2.69,6.59,6068,inactive
CG13743,DRSC22775,1.6,14.3,6131,inactive
CG13743,DRSC25575,13.3,9.4,6366,inactive
Polr2L,DRSC14630,4.71,14,6222,inactive
NimC4,DRSC01945,15.5,,4742,inactive
CG31088,DRSC13123,4.53,0.25,6119,inactive
CG31088,DRSC25600,2.67,2.02,6545,inactive
nis,DRSC00290,2.23,4.63,6289,inactive
Ir31a,DRSC22358,3.85,4.65,6435,inactive
CG17839,DRSC10290,1.89,2.05,6254,inactive
CG17839,DRSC10291,1.03,1.87,6233,inactive
Ir94b,DRSC21439,3.73,2.46,5817,inactive
CAH15,DRSC04534,1.94,3.73,6495,inactive
CAH15,DRSC26087,7.15,4.13,5342,inactive
obst-A,DRSC20543,10.2,12.9,6693,inactive
CG12426,DRSC14516,10.5,23.7,3926,inactive
CG34406 (retired record),DRSC00523,18.3,1.12,5885,inactive
CG34406 (retired record),DRSC00606,1.67,3.91,6715,inactive
CG34406 (retired record),DRSC25843,13.2,4.93,5705,inactive

Entries listed so far whose gene name begins with A or a:
gene,amplicon,"infection score, replicate 1","infection score, replicate 2","cell count, replicate 1",Call
Alp10,DRSC09749,0.37,1.78,5992,inactive
Alp10,DRSC29230,1.1,,364,inactive
Alr,DRSC19469,5.13,3.6,4989,inactive
